Results of unrelated studies side by side (data: NIAID ChemDB).

Shared fields: whole-cell or culture tests; organism: Mycobacterium avium complex

MIC50, MIC90 and the like: level of inhibition, or share of isolates inhibited. Neighbouring rows are from separate reports. Blank or dashed fields: not listed here.

compound | strain | endpoint | method | result
CC[C@H]1OC(=O)[C@H](C)[C@@H](O[C@H]2C[C@@](C)(OC)[C@@H](O)[C@H](C)O2)[C@H](C)[C@@H](O[C@@H]2O[C@H](C)C[C@H](N(C)C)[C@H]2O)[C@](C)(OC)C[C@@H](C)C(=O)[C@H](C)[C@@H](O)[C@]1(C)O | 3219 | MIC |  | 2 µg/mL
CC(C)(C)n1cc(C(=O)O)c(=O)c2cc(F)c(N3CCNCC3)nc21 |  | MIC90 |  | 4 µg/mL
NCC[C@H](O)C(=O)N[C@@H]1C[C@H](N)[C@@H](O[C@H]2O[C@H](CN)[C@@H](O)[C@H](O)[C@H]2O)[C@H](O)[C@H]1O[C@H]1O[C@H](CO)[C@@H](O)[C@H](N)[C@H]1O | 1012 | MIC |  | 10 µg/mL
CC(C)N1CCN(c2cc3c(cc2F)c(=O)c(C(=O)O)cn3-c2ccc(F)cc2F)CC1 | 14 strains | MIC50 |  | 8 µg/mL
O=C(O)c1cn(C2CC2)c2c(F)c(N3CCNCC3)c(F)cc2c1=O | 14 strains | MIC90 |  | 4 µg/mL
C[C@@H]1CN(c2c(F)c(N)c3c(=O)c(C(=O)O)cn(C4CC4)c3c2F)C[C@H](C)N1 | 9 | MIC | broth dilution | 2 µg/mL
NNC(=O)c1ccncc1 | 13016 (serotype 4) | MIC |  | 0.8 µg/mL
CCn1cc(C(=O)O)c(=O)c2cc(F)c(N3CCC(CNCCO)C3)c(F)c21 |  | MIC50 |  | 16 µg/mL
CO[C@H]1/C=C/O[C@@]2(C)Oc3c(C)c(O)c4c(O)c(c5c(c4c3C2=O)NC2(CCN(CC(C)C)CC2)N=5)=NC(=O)/C(C)=C\C=C\[C@H](C)[C@H](O)[C@@H](C)[C@@H](O)[C@@H](C)[C@H](OC(C)=O)[C@@H]1C | 50 isolates | MIC90 |  | 2 µg/mL
CN(C)CC1CCN(c2c(F)cc3c(=O)c(C(=O)O)cn(C4CC4)c3c2F)C1 | 14 strains | MIC50 |  | 0.5 µg/mL
O=[N+]([O-])c1cccc(F)c1CSc1nc2ccccc2[nH]1 | MY330/88 | MIC |  | >250 µM
O=C(O)c1cn(C2CC2)c2c(F)c(N3CC4C(CO)C4C3)c(F)cc2c1=O | 14 strains | MIC90 |  | 32 µg/mL
Cc1ccc(-n2cc(C(=O)O)c(=O)c3cc(F)c(N4CC(C)NC(C)C4)cc32)c(C)c1 | 14 strains | MIC50 |  | ≥32 µg/mL
CC1CN(c2c(F)c(N)c3c(=O)c(C(=O)O)cn(C4CC4)c3c2F)CCN1C | 1915112 | MIC |  | 1 µg/mL
NC[C@@H]1O[C@H](O[C@H]2[C@@H](O)[C@H](O[C@@H]3[C@@H](O)[C@H](N)C[C@H](N)[C@H]3O[C@H]3O[C@H](CO)[C@@H](O)[C@H](O)[C@H]3N)O[C@@H]2CO)[C@H](N)[C@@H](O)[C@@H]1O | CH-3/HIV+ | MIC |  | 3.12 µg/mL
NC[C@H]1O[C@H](O[C@H]2[C@H](O)[C@@H](O[C@H]3O[C@H](CO)[C@@H](O)[C@H](N)[C@H]3O)[C@H](N)C[C@@H]2N)[C@H](O)[C@@H](O)[C@@H]1O | N-962 (HIV+) | MIC |  | 8 µg/mL
NNC(=O)c1ccncc1 | 1012 | MIC |  | 4 µg/mL
C[C@@H]1CN(c2c(F)c(N)c3c(=O)c(C(=O)O)cn(C4CC4)c3c2F)C[C@H](C)N1 | 1760694 | MIC |  | 4 µg/mL
CC(C)N=c1cc2n(-c3ccc(Cl)cc3)c3ccccc3nc-2cc1Nc1ccc(Cl)cc1 | 1423/HIV+ | MIC |  | 0.25 µg/mL
NCC[C@H](O)C(=O)N[C@@H]1C[C@H](N)[C@@H](O[C@H]2O[C@H](CN)[C@@H](O)[C@H](O)[C@H]2O)[C@H](O)[C@H]1O[C@H]1O[C@H](CO)[C@@H](O)[C@H](N)[C@H]1O | 3211 | MIC |  | 32 µg/mL
N#Cc1ccc(CSc2nc3ccccc3[nH]2)cc1 | MY330/88 | MIC |  | 62 µM
NC[C@@H]1O[C@H](O[C@H]2[C@@H](O)[C@H](O[C@@H]3[C@@H](O)[C@H](N)C[C@H](N)[C@H]3O[C@H]3O[C@H](CO)[C@@H](O)[C@H](O)[C@H]3N)O[C@@H]2CO)[C@H](N)[C@@H](O)[C@@H]1O | TMC 1406 | MIC |  | <0.01 µg/mL
CNC1CCN(c2c(F)cc3c(=O)c(C(=O)O)cn(C4CC4)c3c2F)C1 | 1915112 | MIC |  | 4 µg/mL
O=C(O)c1cn(-c2ccc(F)cc2)c2cc(N3CCNCC3)c(F)cc2c1=O | 14 strains | MIC90 |  | 8 µg/mL
CCCCCCSc1nc2ccccc2[nH]1 | MY330/88 | MIC |  | 62 µM
CC1COc2c(N3CCN(C)CC3)c(F)cc3c(=O)c(C(=O)O)cn1c23 | 827/HIV+ | MIC |  | 4 µg/mL
NCC1CCN(c2c(F)cc3c(=O)c(C(=O)O)cn(C4CC4)c3c2F)C1 | PI12/39 | MIC |  | 2 µg/mL
O=C(O)c1cn(C2CC2)c2c(F)c(N3CC4C(CO)C4C3)c(F)cc2c1=O |  | MIC50 |  | 8 µg/mL
CC[C@@H](CO)NCCN[C@@H](CC)CO | 101-5 | MBC |  | 15 µg/mL
NCCC[C@H](N)CC(=O)N[C@H]1CNC(=O)[C@H]([C@H]2C[C@H](O)NC(N)=N2)NC(=O)/C(=C/NC(N)=O)NC(=O)[C@H](CO)NC(=O)[C@H](CO)NC1=O | TMC 1403 | MIC |  | 6.25 µg/mL
Cc1c(F)c(N2CCNC(C)C2)c(C(F)(F)F)c2c1c(=O)c(C(=O)O)cn2C1CC1 |  | MIC90 |  | 16 µg/mL
CC1CN(c2cc3c(cc2F)c(=O)c(C(=O)O)cn3-c2ccc(F)cc2F)CCN1 | 3213 | MIC |  | 4 µg/mL
CC1COc2c(C3(N)CC3)c(F)cc3c(=O)c(C(=O)O)cn1c23 | 14 strains | MIC50 |  | ≥32 µg/mL
CN[C@@H]1[C@@H](O)[C@@H](O[C@@H]2[C@@H](O)[C@H](O[C@H]3O[C@H](CN)CC[C@H]3N)[C@@H](N)C[C@H]2N)OC[C@]1(C)O | Isolate 93 | MIC |  | 6.25 µg/mL
CCOc1c(N2CCC(C(C)(C)N)C2)c(F)cc2c(=O)c(C(=O)O)cn(C3CC3)c12 |  | MIC50 |  | 4 µg/mL
CN(C)C1CCN(c2c(F)cc3c(=O)c(C(=O)O)cn(C4CC4)c3c2F)C1 | 1172733 | MIC |  | 0.5 µg/mL
CC[C@@H](CO)NCCN[C@@H](CC)CO | 2212 | MBC |  | 30 µg/mL
NC[C@@H]1O[C@H](O[C@H]2[C@@H](O)[C@H](O[C@@H]3[C@@H](O)[C@H](N)C[C@H](N)[C@H]3O[C@H]3O[C@H](CO)[C@@H](O)C[C@H]3N)O[C@@H]2CO)[C@H](N)[C@@H](O)[C@@H]1O[C@H]1O[C@H](CO)[C@@H](O)[C@H](O)[C@@H]1O | TMC 1411 | MIC |  | 0.05 µg/mL
CCCCSc1nc2ccccc2[nH]1 | MY330/88 | MIC |  | 125 µM
NCC[C@H](O)C(=O)N[C@@H]1C[C@H](N)[C@@H](O[C@H]2O[C@H](CN)[C@@H](O)[C@H](O)[C@H]2O)[C@H](O)[C@H]1O[C@H]1O[C@H](CO)[C@@H](O)[C@H](N)[C@H]1O | CH-3/HIV+ | MIC |  | 2.5 µg/mL
O=C(O)c1cn(C2CC2)c2c(F)c(N3CC4CC3CN4)c(F)cc2c1=O |  | MIC50 |  | 2 µg/mL
Clc1ccc(CSc2nc3ccccc3[nH]2)cc1Cl | MY330/88 | MIC |  | 16 µM
CO[C@H]1/C=C/O[C@@]2(C)Oc3c(C)c(O)c4c(O)c(c(/C=N/N5CCN(C/C=C/c6ccccc6)CC5)c(O)c4c3C2=O)NC(=O)/C(C)=C\C=C\[C@H](C)[C@H](O)[C@@H](C)[C@@H](O)[C@@H](C)[C@H](OC(C)=O)[C@@H]1C | SK-12 | MIC |  | 0.06 µg/mL
O=C(O)c1cn(C2CC2)c2c(F)c(N3CCC(NC4CC4)C3)c(F)cc2c1=O |  | MIC90 |  | 8 µg/mL
CN[C@@H]1[C@H](O[C@H]2[C@H](O[C@H]3[C@H](O)[C@@H](O)[C@H](N=C(N)N)[C@@H](O)[C@@H]3N=C(N)N)O[C@@H](C)[C@]2(O)C=O)O[C@@H](CO)[C@H](O)[C@H]1O | Isolate 49 | MIC |  | 12.5 µg/mL
CCC1CN(c2c(F)cc3c(=O)c(C(=O)O)cn(C4CC4)c3c2F)CCN1 | 14 strains | MIC90 |  | 4 µg/mL
NCC1CN(c2c(F)cc3c(=O)c(C(=O)O)cn(C4CC4)c3c2F)CC1c1ccccc1 | PI12/39 | MIC |  | 8 µg/mL
CC1COc2c(N3CCN(C)CC3)c(F)cc3c(=O)c(C(=O)O)cn1c23 | CIPT 14031002 | MIC |  | 10 µg/mL
Cc1cccc(CSc2nc3ccccc3[nH]2)c1 | MY330/88 | MIC |  | 62 µM
CCn1cc(C(=O)O)c(=O)c2cc(F)c(N3CCNCC3)nc21 | CIPT 140310030 | MIC |  | 20 µg/mL
CC[C@@H](CO)NCCN[C@@H](CC)CO | 2212-4 | MIC |  | 3.8 µg/mL
CCN1CCN(c2cc3c(cc2F)c(=O)c(C(=O)O)cn3C(C)(C)C)CC1 | 14 strains | MIC90 |  | 4 µg/mL
CN[C@@H]1[C@H](O[C@H]2[C@H](O[C@H]3[C@H](O)[C@@H](O)[C@H](N=C(N)N)[C@@H](O)[C@@H]3N=C(N)N)O[C@@H](C)[C@]2(O)C=O)O[C@@H](CO)[C@H](O)[C@H]1O | 13016 (serotype 4) | MIC |  | 0.8 µg/mL
NC[C@H]1O[C@H](O[C@H]2[C@H](O)[C@@H](O[C@H]3O[C@H](CO)[C@@H](O)[C@H](N)[C@H]3O)[C@H](N)C[C@@H]2N)[C@H](O)[C@@H](O)[C@@H]1O | ATCC 13950 | MIC |  | 25 µg/mL
COc1c(N2CC(C)NC(C)C2)c(F)cc2c(=O)c(C(=O)O)cn(C3CC3)c12 | 14 strains | MIC90 |  | 1 µg/mL

Repeating the first 4 entries:

{"compound": "CC[C@H]1OC(=O)[C@H](C)[C@@H](O[C@H]2C[C@@](C)(OC)[C@@H](O)[C@H](C)O2)[C@H](C)[C@@H](O[C@@H]2O[C@H](C)C[C@H](N(C)C)[C@H]2O)[C@](C)(OC)C[C@@H](C)C(=O)[C@H](C)[C@@H](O)[C@]1(C)O", "strain": "3219", "endpoint": "MIC", "result": "2 µg/mL"}
{"compound": "CC(C)(C)n1cc(C(=O)O)c(=O)c2cc(F)c(N3CCNCC3)nc21", "endpoint": "MIC90", "result": "4 µg/mL"}
{"compound": "NCC[C@H](O)C(=O)N[C@@H]1C[C@H](N)[C@@H](O[C@H]2O[C@H](CN)[C@@H](O)[C@H](O)[C@H]2O)[C@H](O)[C@H]1O[C@H]1O[C@H](CO)[C@@H](O)[C@H](N)[C@H]1O", "strain": "1012", "endpoint": "MIC", "result": "10 µg/mL"}
{"compound": "CC(C)N1CCN(c2cc3c(cc2F)c(=O)c(C(=O)O)cn3-c2ccc(F)cc2F)CC1", "strain": "14 strains", "endpoint": "MIC50", "result": "8 µg/mL"}